Results taken from the supplement of paper PMC9931576.
Human monoclonal antibodies against the spike receptor-binding domain (heavy:light variable regions). IC50 against pseudoviruses bearing the spike of naturally observed variants; lower = stronger; >10 µg/ml means not reached at the top dose. No active / inactive call. The stated detection limit is 0.0005 µg/ml; values near or below 0.001 µg/ml lie at the floor of the assay.

Columns and labels:
Test in all cases: pseudovirus neutralization IC50; higher = weaker neutralization
[1] = molecular target: SARS-CoV-2 Omicron BA.1 spike pseudovirus
Procedure: (§1)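 Single-round VSV luciferase pseudovirus mixed with antibody dilutions for 1 h and put on Huh-7 cells for about a day; IC50 from the dose curve.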

[2] = molecular target: SARS-CoV-2 Omicron BA.2 spike pseudovirus
Procedure: as §1

[3] = molecular target: SARS-CoV-2 Omicron BA.2.75 spike pseudovirus
Procedure: as §1

[4] = molecular target: SARS-CoV-2 Omicron BA.5 spike pseudovirus
Procedure: as §1

[5] = molecular target: SARS-CoV-2 Omicron BQ.1.1 spike pseudovirus
Procedure: as §1

[6] = molecular target: SARS-CoV-2 Omicron XBB spike pseudovirus
Procedure: as §1

[7] = molecular target: SARS-CoV-2 early D614G spike pseudovirus
Procedure: as §1

B1: BD-790 (protein)
chain 1: QVQLVQSGAEVRKPGASVKVSCKASGYIFTGYYIHWVRQAPGQGLEWMGRLNPISGGTTYAQRFQGRVTMTRDTSITTAYMDVTRLRSDDTVVYYCARGPFYYDSGSAGSFDYWGQGTLVTVSS
chain 2: DIVMTQTPLSLSVTPGQPASISCKSSQSLLHSDGKTYLYWYLQKPGQPPQLLIYEVSNRFSGVTDRFSGSGSGTDFTLKISRVEAEDVGVYYCMQSIQLPLTFGGGTKVEIK
[1]
  pseudovirus neutralization IC50: > 10 µg/mL
[2]
  pseudovirus neutralization IC50: > 10 µg/mL
[3]
  pseudovirus neutralization IC50: > 10 µg/mL
[4]
  pseudovirus neutralization IC50: > 10 µg/mL
[5]
  pseudovirus neutralization IC50: > 10 µg/mL
[6]
  pseudovirus neutralization IC50: > 10 µg/mL
[7]
  pseudovirus neutralization IC50: 0.004 µg/mL

B2: BD-778 (protein)
chain 1: EVQLVQSGAEVKKPGESLKISCKGSGYSFTRFWIGWVRQMPGRGLEWMGIIYPGDSDTRYSPSFQGQVTISADRSFSTAYLQWSSLKASDTAFYYCARHGDRLTTTTAQIDYWGQGTLVTVSS
chain 2: NFMLTQPHSVSESPGKTVTISCTRSSGSIASNYVQWYQQRPGSAPTTMIFEDNQGPSGVPDRFSGSIDSSSNSASLTISGLKTEDEAVYYCQSSDSSNVVFGGGTKLTVL
[1]
  pseudovirus neutralization IC50: 2.45 µg/mL
[2]
  pseudovirus neutralization IC50: 1.65 µg/mL
[3]
  pseudovirus neutralization IC50: 3.84 µg/mL
[4]
  pseudovirus neutralization IC50: 3.13 µg/mL
[5]
  pseudovirus neutralization IC50: 1.39 µg/mL
[6]
  pseudovirus neutralization IC50: 2.14 µg/mL
[7]
  pseudovirus neutralization IC50: 0.775 µg/mL

B3: BD-767 (protein)
chain 1: QVQLVQSGAELKKPGASVKVSCKASGYTFTDYFIHWVRQAPGQGLEWMGWINPNSGGTNYAQKFQDWVTMTRDRSINTVYMELSRLKSDDTAVYYCARDQCGIGVAASGCVNRFDPWGQGTLVTVSS
chain 2: QSALTQPPSASGSPGQSVTISCTGTSSDPGGYKYVSWYQQGPSKAPKLIIYEVSKRPSGVPDRFSGSKSGNTASLTVAGLQAEDEADYYCSSYAGSNNVVFGGGTKLTVL
[1]
  pseudovirus neutralization IC50: > 10 µg/mL
[2]
  pseudovirus neutralization IC50: > 10 µg/mL
[3]
  pseudovirus neutralization IC50: > 10 µg/mL
[4]
  pseudovirus neutralization IC50: > 10 µg/mL
[5]
  pseudovirus neutralization IC50: > 10 µg/mL
[6]
  pseudovirus neutralization IC50: > 10 µg/mL
[7]
  pseudovirus neutralization IC50: 0.003 µg/mL

B4: BD55-749 (protein)
chain 1: QVQLVQSGAEVKKPGASVKVSCKASGYTFSNYGITWVRQAPGQGLEWMGWISAYNSNTKYAQKFQGRVTMTTETSTSTAYMELRFLRSDDTAVYYCARLLTGTTFVSSSRAFDIWGQGTMVTVSS
chain 2: SYELTQPPSVSVSPGQTASITCSGDALSKQYAYWYQQRPGQAPVVVIYKDRERPSGIPERFSGSSSGTTVTLTITGVQAEDEADYYCQSADSSGTYVFGTGTKVTVL
[1]
  pseudovirus neutralization IC50: 4.5 µg/mL
[2]
  pseudovirus neutralization IC50: 6.02 µg/mL
[3]
  pseudovirus neutralization IC50: 5.33 µg/mL
[4]
  pseudovirus neutralization IC50: 6.21 µg/mL
[5]
  pseudovirus neutralization IC50: > 10 µg/mL
[6]
  pseudovirus neutralization IC50: > 10 µg/mL
[7]
  pseudovirus neutralization IC50: 1.04 µg/mL

B5: BD55-977 (protein)
chain 1: QVQLVQSGPEVKKPGSPVKVSCKASGGTFNKFNYGIHWVRQAPGQGLEWMGRIIPLFGLTNYADKFEGRVTITADKSATTAYMEIYSLTSDDTAVYFCAGEALKPLDGYSTSWNDHWGQGTLVTVSS
chain 2: EIVMTQSPGTLSVSPGERATLSCRASQSIGSNLAWYQQKPGQAPRLLFSRATNRAAGVPAKFSGSGSGTEFTLTISSLQSEDFGVYYCQQFNNWPLTFGQGTRLEIK
[1]
  pseudovirus neutralization IC50: > 10 µg/mL
[2]
  pseudovirus neutralization IC50: 1.17 µg/mL
[3]
  pseudovirus neutralization IC50: > 10 µg/mL
[4]
  pseudovirus neutralization IC50: > 10 µg/mL
[5]
  pseudovirus neutralization IC50: > 10 µg/mL
[6]
  pseudovirus neutralization IC50: > 10 µg/mL
[7]
  pseudovirus neutralization IC50: 1.53 µg/mL

B6: BD55-742 (protein)
chain 1: QVTLKESGPVLVKPTETLTLTCTVSGFSLSNARMGVSWIRQPPGKALEWLAHIFSNDEKSYSTSLKSRLTISKDTSKSQVVLTMTNMDPVDTATYYCARILYVVLTAIPLDEGYFDLWGRGTLVTVSS
chain 2: SYELTQPPSVSVSPGQTARITCSGDTLPKQYVYWYQQKPGQAPVLTIYKDSERPSGIPERFSGSSSGTTVTLTISRVQAEDEADYYCQSADSRGVVFGGGTKLTVL
[1]
  pseudovirus neutralization IC50: > 10 µg/mL
[2]
  pseudovirus neutralization IC50: > 10 µg/mL
[3]
  pseudovirus neutralization IC50: > 10 µg/mL
[4]
  pseudovirus neutralization IC50: > 10 µg/mL
[5]
  pseudovirus neutralization IC50: > 10 µg/mL
[6]
  pseudovirus neutralization IC50: > 10 µg/mL
[7]
  pseudovirus neutralization IC50: > 10 µg/mL

B7: BD-743 (protein)
chain 1: QVQLVQSGAEVKKPGASVKVSCKASGYTFASHNMHWVRQAAGQRLEWMGWMNAGNGNTKYLQKFQGRLTITRDTSATTAHMELSSLRSEDTAVYYCVRLGSEIEVGPDFWGQGTLVTVSS
chain 2: SYELTQPSSVSVSPGQTARITCSGDVLAKKYARWFQQKPGQAPVLVIYKDSERPSGIPERFSGSSSGTTVTLTISGAQVEDEADYYCYSAADNNLVFGGGTKLTVL
[1]
  pseudovirus neutralization IC50: 6.57 µg/mL
[2]
  pseudovirus neutralization IC50: 8.9 µg/mL
[3]
  pseudovirus neutralization IC50: 6.09 µg/mL
[4]
  pseudovirus neutralization IC50: 7.12 µg/mL
[5]
  pseudovirus neutralization IC50: > 10 µg/mL
[6]
  pseudovirus neutralization IC50: > 10 µg/mL
[7]
  pseudovirus neutralization IC50: 0.954 µg/mL

B8: BD-732 (protein)
chain 1: QVQLQEAGPGLVKPSGTLSLTCAVSGGSISGSHWWTWVRQPPGKGLEWIGEIFHSGSTTYNPSLKSRITMSVDKSKNQFSLKLNSVTAADTAVYYCARASAIIDYWGQGTLVTVSS
chain 2: DIQMTQSPSSLSASVGDRVTITCRASQGISNSLAWYQQKPGKAPKLLLYAASTLESGVPSRFSGSGSGTDYTLTISSLQPEDFATYYCQQYYSPPPRTFGQGTKVEIK
[1]
  pseudovirus neutralization IC50: > 10 µg/mL
[2]
  pseudovirus neutralization IC50: > 10 µg/mL
[3]
  pseudovirus neutralization IC50: > 10 µg/mL
[4]
  pseudovirus neutralization IC50: > 10 µg/mL
[5]
  pseudovirus neutralization IC50: > 10 µg/mL
[6]
  pseudovirus neutralization IC50: > 10 µg/mL
[7]
  pseudovirus neutralization IC50: > 10 µg/mL

B9: BD-918 (protein)
chain 1: QVQLQESGPGLVKPSETLSLTCTVSGGSISDYYWSWIRQPAGKGLEWIGRIYASGSTSYNPSLKSRVTMSEDTSKNQFSLKLRSVAAADTAVYYCAREGITMVGGKIHNWFDPWGQGTLVTVSS
chain 2: QSVLTQPPSASGTPGQRVTISCSGSSSNIASNYVYWYQQLPGTAPKLLIYRNNQRPSGVPDRFSGSKSDTSASLAISGLRSEDEADYYCAAWDDSLSGPVFGGGTKLTVL
[1]
  pseudovirus neutralization IC50: > 10 µg/mL
[2]
  pseudovirus neutralization IC50: > 10 µg/mL
[3]
  pseudovirus neutralization IC50: > 10 µg/mL
[4]
  pseudovirus neutralization IC50: > 10 µg/mL
[5]
  pseudovirus neutralization IC50: > 10 µg/mL
[6]
  pseudovirus neutralization IC50: > 10 µg/mL
[7]
  pseudovirus neutralization IC50: 0.005 µg/mL

B10: BD55-751 (protein)
chain 1: QVQLVQSGSELKKPGASVKVSCKASGYTFTNYGINWVRQAPGQGLEWMGWINTYTGNPTYAQGFTGRFVFSFDTSVNTAYLQISSLKAEDTAVYYCARANRKYYYGHILEWFDPWGQGTLVTVSS
chain 2: QLVLTQSPSASASLGASVRLTCTLSSGHSSYAIAWHQQQPGKGPRFLMKVYSDGVHSKGDGIPDRFSGSSSGAERYLTISSLQSEDEADYYCQTWGTDIGVFGTGTKVTVL
[1]
  pseudovirus neutralization IC50: > 10 µg/mL
[2]
  pseudovirus neutralization IC50: > 10 µg/mL
[3]
  pseudovirus neutralization IC50: > 10 µg/mL
[4]
  pseudovirus neutralization IC50: > 10 µg/mL
[5]
  pseudovirus neutralization IC50: > 10 µg/mL
[6]
  pseudovirus neutralization IC50: > 10 µg/mL
[7]
  pseudovirus neutralization IC50: 1.68 µg/mL

B11: BD55-747 (protein)
chain 1: QLQLHESGPPLLKPSATLSLTCTVSGASFNSANYFWAWIRQPPGKGLEWIGTFYYTGTTYYNPSLKSRVTMSVDTSKNQFSLRLISVAAADTAVYYCASLRWLRGQFNYWGQGSLVTVSS
chain 2: NFMLTQPHSVSESPGKTVTISCTRISGYIASNYVHWYQQRPGSAPTTVIYEDNQRPSGVPDRFSGSIDSSSNSASLTISGLKTEDEADYYCQSYDSTFWVFGGGTKVTVL
[1]
  pseudovirus neutralization IC50: 3.18 µg/mL
[2]
  pseudovirus neutralization IC50: > 10 µg/mL
[3]
  pseudovirus neutralization IC50: > 10 µg/mL
[4]
  pseudovirus neutralization IC50: > 10 µg/mL
[5]
  pseudovirus neutralization IC50: > 10 µg/mL
[6]
  pseudovirus neutralization IC50: > 10 µg/mL
[7]
  pseudovirus neutralization IC50: 0.305 µg/mL

B12: BD-916 (protein)
chain 1: EVQLVESGGGLVQPGRSLRLSCAASGFTFDDYAMHWVRQVPGKGLEWVSGISWNGDSIGYADSVKGRLTISRDNAKNTLFLQMNSLRAEDTAFYYCVKGLLGEWEFLFDYWGQGTLVTVSS
chain 2: QSVLTQPPSASGTPGQRVTISCSGSSSNIGNKITNWYQQLPGTAPKFLIYSNNQRPSGVPDRFSASKSGTSASLAISGLQSEDEADYYCAAWDDSLNALVFGGGTKLTVL
[1]
  pseudovirus neutralization IC50: 1.41 µg/mL
[2]
  pseudovirus neutralization IC50: > 10 µg/mL
[3]
  pseudovirus neutralization IC50: > 10 µg/mL
[4]
  pseudovirus neutralization IC50: > 10 µg/mL
[5]
  pseudovirus neutralization IC50: > 10 µg/mL
[6]
  pseudovirus neutralization IC50: > 10 µg/mL
[7]
  pseudovirus neutralization IC50: 1.69 µg/mL
